# Library screen at single concentrations

The values are deposited in ChEMBL (CHEMBL3988442, “University of Dundee, Small-Polar-MMV Screening Library” (2021)).

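Growth of Mycobacterium tuberculosis over 3 days (7H9 medium with glucose and tyloxapol); the read-out is not stated. Tested at 500 µM. The record gives no direction; compounds that gave an IC50 in retests scored well above the rest, so higher reads as more growth inhibition. Size under these conditions: about 18,000 compounds, about 1,400 of them at 50% or above in at least one test.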

The filed quantity is “Percent Effect” (%).
The controls that fix the scale are not given in the record; negative values are as filed.
This is part of a subset picked to be rich in strong results.

| # | SMILES | effect |
|---|---|---|
| 1 | `Cn1nccc1C1COCCN1` (centres unmarked) | -0.239% |
| 2 | `Cc1cc(Br)oc1C(=O)Nc1ncccc1O` | 72.96% |
| 3 | `CC(C)CCNC(=O)c1ccccc1S(C)(=O)=O` | 2.287% |
| 4 | `COCC1CCN(C(=O)c2cc(C3CC3)on2)CC1` | 59.73% |
| 5 | `CC(Cn1ccnc1)NC(=O)CN1CCCC1=O` (centres unmarked) | 1.253% |
| 6 | `O=C1CN(C(=O)CNc2c(F)cccc2Cl)CCN1` | 3.69% |
| 7 | `CCCNC(=O)c1cc(C(C)C)on1` | 55.23% |
| 8 | `COCC(N)Cc1ccccc1` (centres unmarked) | 3.795% |
| 9 | `COc1ccc(C(=O)C2CCCN2)cc1` (centres unmarked) | 39.13% |
| 10 | `O=C(Cc1cc(F)ccc1F)NCC1CCNC1` (centres unmarked) | 3.44% |
| 11 | `COCCNc1nnc(SCc2ccc(Br)cn2)s1` | 64.38% |
| 12 | `Cc1cc(C(=O)N(C)Cc2cccc(C#N)c2)[nH]n1` | -1.528% |
| 13 | `Cc1cccc(CNCCc2nnc[nH]2)c1` | 13.86% |
| 14 | `Cc1cc(CN(C)C(=O)c2c(C)nn(C)c2Cl)no1` | -5.559% |
| 15 | `COc1ccccc1S(=O)(=O)Nc1cccnc1O` | 25.13% |
| 16 | `COc1ccc(NC(=O)CNC(=O)C(C)(C)C)cc1` | 25.44% |
| 17 | `CC(C)c1ccoc1C(=O)N(C)c1cc(C#N)ccn1` | 63.91% |
| 18 | `Cc1ccc(C(=O)N2CCN(C)CC2C)c(C)c1` (centres unmarked) | 25.77% |
| 19 | `CN1CCC(C(=O)N(C)Cc2ccccn2)CC1=O` (centres unmarked) | -11% |
| 20 | `O[C@H]1C[C@@H](c2cc(NCCc3ncc[nH]3)ncn2)C1` | 6.308% |
| 21 | `CC(N)C(=O)Nc1cccc(N2CCCC2)c1` (centres unmarked) | 43.94% |
| 22 | `CC(CO)(CO)NC(=O)c1ccc(-c2ccccc2)o1` | 3.224% |
| 23 | `Cn1cc(C(N)C2(CO)CCC2)cn1` (centres unmarked) | 7.738% |
| 24 | `N#CC1(C(=O)Nc2cc(C(N)=O)ccc2Cl)CCCC1` | 0.4694% |
| 25 | `CCc1nn(C)c(CC)c1S(=O)(=O)N1CCC(N)CC1` | 10.81% |
| 26 | `COC(=O)C1CN(Cc2ccncc2Cl)CCO1` (centres unmarked) | -3.229% |
| 27 | `CCn1c(CN2CCCC2)nnc1[C@H]1C[C@H](N)C1` | 15.29% |
| 28 | `CC(=O)Nc1nc(C)c(S(=O)(=O)N2CCCC2)s1` | -0.2343% |
| 29 | `Nc1ccnc(-c2ccc(CO)cc2)c1` | 12.12% |
| 30 | `COc1ccc2[nH]c(C)nc2c1` | 3.122% |
| 31 | `Cc1cc(NC(=O)NC2CCN(C3CC3)CC2)n(C)n1` | -4.715% |
| 32 | `Cc1csc(NC(=O)NC(CO)CC(C)C)n1` (centres unmarked) | 66.92% |
| 33 | `C[C@@H]1CN(C(=O)c2cc(F)ccc2F)C[C@H]1CO` | 9.75% |
| 34 | `CO[C@@H]1CCOC[C@H]1NC(=O)CCc1ccccn1` | 7.736% |
| 35 | `CC(C)(C)OC(=O)N1CCOCC1C#N` (centres unmarked) | 4.335% |
| 36 | `O=C(CCCc1ccccc1)NCc1ccccn1` | 65.64% |
| 37 | `COCCOc1ccc(CN)cn1` | 10.9% |
| 38 | `O=C(CCn1cc(Br)cn1)NCc1cccs1` | 63.75% |
| 39 | `CNC(C)c1ccccn1` (centres unmarked) | 3.488% |
| 40 | `CNC(=O)CN(c1cccc2ccccc12)S(C)(=O)=O` | 7.111% |
| 41 | `CC(CO)Sc1ccc(S(=O)(=O)C(F)F)cc1` (centres unmarked) | 56.44% |
| 42 | `COc1cccc(OCC(=O)NCC2CCCO2)c1` (centres unmarked) | 63.07% |
| 43 | `O=C(c1ccccc1)N1CCCNCC1` | 2.937% |
| 44 | `COCC(=O)N1CCN(CC2CCCCC2)CC1` | 10.01% |
| 45 | `CC(=O)c1ccnc(N2CCC(NS(C)(=O)=O)CC2)c1` | -17.52% |
| 46 | `O=C(NCCn1cccn1)c1cc2sccc2[nH]1` | 14.68% |